In the experiment the target is WIV-1 RBD (recombinant receptor binding domain of Spike) (bat sarbecovirus WIV-1, UniProt U5WI05). The note with it: both partners purified.

B1: V1WT_06 IgG (antibody, V domains shown)
VH: EVQLVQSGAEVKKPGASVKVSCKASGYTFSSHGISWVRQAPGQGLEWMGWISTYNGNTNSAQNLQGRVTMTADTSTSTAYMELRSLRSDDTAVYYCARGPWGYCSGTSCYYWTPDNPAYSYHGMDVWGQGTTVTVSS
VL: not shown
notes: copies: 2 + 2
On to B1, for which the “fold increase in binding by ELISA, IgG over Fab” value is 6.3 fold.

B2: VA14_26 IgG (antibody, V domains shown)
VH: QVQLQQWGAGLLKPSDTLSLTCGISGGPFSGYYWSWIRQPPGKGLEWLGEINHSGITTYNPSLKSRGTISVDTSKRQISLKLASVTAADTAVYYCARFAYGDYGWDYSSDMDVWGKGTTVTVSS
VL: DIQLTQSPSTLSASVGDRVTITCRASQSISTWLAWHQQIPGKAPKLLIYRASTLQSGVPSRFSGSGSGTEFTLTISSLQPDDFATYYCQQYYSVRTFGQGTKVDIK
notes: copies: 2 + 2
Take B2: the binding result is “binds”.

B3: V1WT_41 IgG (antibody, V domains shown)
VH: QVQLQESGPGLVKPSETVSVTCTVSGGSITRSNYYWGWIRQPPGKGLEWIGSIFYNGNTNYNPSLKSRLTISVDTSKNQFSLKLSSVTAADTAVYYCARTAPYYYDRSGYYQKEEYFQRWGQGTLVTVSS
VL: EIVMTQSPSTLSASVGDRVTITCRASQSISTWLAWYQQKPGKAPNLLIYQASSLESGVPSRFSGSGSGTEFTLTISSLQPDDFATYYCQQYNNYPRTFGQGTKLEIK
notes: copies: 2 + 2
With B3, the binding result was “binds”.

Source of the values: paper PMC13630248 (PLOS Biology, 2026).
